From patent US10227373B2 (priority 2014, dated 2019)

Tests used:
Ebola virus = system: Ebola virus; design: SI90: unit not given beside the values
human cytomegalovirus = type: cell-based; design: SI90: unit not given beside the values

## Nc1nccc2c1ncn2C1=C[C@H](CO)[C@@H](O)[C@H]1O [“D”-3-Deazaisoneplanocin, D-1′,6′-iso-3-deazaneplanocin]
Ebola virus
  times higher drug concentration than “L”-3-Deazaisoneplanocin to inhibit Ebola replication by 90%: 230 times
Human cytomegalovirus
  times less drug concentration than Ganciclovir to reduce viral replication by 50%: 4 times
  times less drug concentration than Ganciclovir to reduce viral replication by 90%: 9 times

## Nc1nc(O)c2ncn(COC(CO)CO)c2n1 [ganciclovir, reference compound]
Human cytomegalovirus
  SI50 (CC50/EC50): > 638
  SI90: > 326

## Nc1nccc2c1ncn2[C@@H]1C[C@@H](CO)[C@H](O)[C@@H]1O [carbocyclic 3-deazaadenosine, reference compound]
Ebola virus
  SI50 (CC50/EC50): > 100 and > 52
  SI90: 1

## Nc1nccc2c1ncn2C1=C[C@@H](CO)[C@H](O)[C@@H]1O [“L”-3-Deazaisoneplanocin, L-1′,6′-iso-3-deazaneplanocin]
Human cytomegalovirus
  times less drug concentration than Ganciclovir to reduce viral replication by 50%: 4 times
  times less drug concentration than Ganciclovir to reduce viral replication by 90%: 9 times

Values joined by “and” are separate entries in the source; they are usually repeats but may differ in a detail not shown here. Identical values can stand only once.
